Experimental data from patent USRE46376 (Wyeth LLC, dated 2017).

B1: B59-3 mAb (antibody, V domains shown)
VH: QVQLQQPGAELVKPGASVKLSCKASGYTFTSYWMHWVKQRPGQGLEWIGVINPSNGRSTYSEKFKTTATVTVDKSSSTAYMQLSILTSEDSAVYYCARAYYSTSYYAMDYWGQGTSVTVSS
VL: VLMTQSPLSLPVSLGDQASISCRSSQNIVHSNGNTYLEWYLQKPGQSPKLLIYKVSNRFSGVPDRFSGSGSGTYFTLKISRVEAEDLGVYYCFQGSHFPFTFGTGTKLEIKR
B2: B8-26 mAb (antibody, V domains shown)
VH: QVQLQQPGAELVKPGAPVKLSCKASGYSFTSYWMNWVKQRPGRGLEWIGRIDPSNSEIYYNQKFKDKATLTVDKSSSTAYIQLSSLTSEDSAVYYCASGHYGSIFAYWGQGTTLTVSS
VL: VQITQSPSYLAASPGETITINCRASKSISKYLAWYQEKPGKTNKLLLYSGSTLQSGIPSRFSGSRSGTDFTLIISSLEPEDSAMYYCQQHNEYPLTFGAGTKLELKR

Target: triple mutant toxin B (D286A/D288A/C698A), genetic, not chemically treated (Clostridium difficile strain 630 …)
Experiment: dot blot; None, Triple mutant TcdB

Binder | binding result
B1 | binds
B2 | binds
